What all share (assay): pseudovirus neutralization IC50; higher = weaker neutralization
Assay [1] deals with SARS-CoV-2 Omicron BA.1 spike pseudovirus. The protocol: (§1)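 Single-round VSV luciferase pseudovirus mixed with antibody dilutions for 1 h and put on Huh-7 cells for about a day; IC50 from the dose curve.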
Assay [2] concerns the target SARS-CoV-2 Omicron BA.2 spike pseudovirus. The protocol: as §1
The target of assay [3] is SARS-CoV-2 Omicron BA.2.75 spike pseudovirus. The protocol:
as §1

Assay [4] deals with SARS-CoV-2 Omicron BA.5 spike pseudovirus. The method, then:
as §1

Assay [5] deals with SARS-CoV-2 Omicron BQ.1.1 spike pseudovirus. The method, then:
as §1

The target in assay [6] is SARS-CoV-2 Omicron XBB spike pseudovirus. The protocol: as §1
Assay [7] concerns the target SARS-CoV-2 early D614G spike pseudovirus. The method, then: as §1

The source of these data is the supplement of paper PMC9931576.

Human monoclonal antibodies against the spike receptor-binding domain (heavy:light variable regions). IC50 against pseudoviruses bearing the spike of naturally observed variants; lower = stronger; >10 µg/ml means not reached at the top dose. No active / inactive call. The stated detection limit is 0.0005 µg/ml; values near or below 0.001 µg/ml lie at the floor of the assay. A value given as a limit tells only on which side of the number the result lay.

B1: DH1041 (protein)
chain 1: EVQLVESGGGLVQPGGSLRLSCAASGVTFSSYWMSWVRQAPGKGLEWVANIRQDGSEKYSVDSVKGRFTISRDNAKNSLYLQMNSLRAEDTAVYYCARARRADNSGYYGFHFDCWGQGTLVTVSS
chain 2: QSVLTQPPSVSGAPGQRVTISCTGSSSNIGAGYDVHWYQQLPGTAPKLLIYGNNNRPSGVPDRFSDSKSGTSASLAITRLQAEDEADYYCQSYDSSLSGWVFGGGTKLTVL
For the molecule B1, the “pseudovirus neutralization IC50” value in assay [1], in assay [2], in assay [3], in assay [4], in assay [5] and in assay [6] was > 10 µg/mL each time. Further, the “pseudovirus neutralization IC50” value in assay [7] came to 0.0086 µg/mL.

B2: BD56-1823 (protein)
chain 1: EVQLVESGGGLVKPGGSLRLSCAASGFTFSRYTMNWVRQAPGKGLEWVSSIGSSSTHIYYPDSVKGRFTISRDNAKKSVYLQMNSLRVEDTAVYYCARDPGAFDWALGSLDYYGMNVWGQGTTVTVSS
chain 2: QSVLTQPPSVSGAPGQRVTISCTGSSSNIGADYAVHWYRQLPGTAPKLLIYGNTNRPSGVPDRFSGSKSGTSASLAITGLQAEDEADYYCQSFDNSLSGVVFGGGTKLTVL
Take B2: the “pseudovirus neutralization IC50” value in assay [1] is 0.291 µg/mL; in assay [2], 4.86 µg/mL; in assay [3], > 10 µg/mL; in assay [4], 6.05 µg/mL; in assay [5], > 10 µg/mL; in assay [6], > 10 µg/mL. Also, the “pseudovirus neutralization IC50” value in assay [7] turned out to be 0.181 µg/mL.

B3: BD56-1814 (protein)
chain 1: QVQLQESGPGLVKPSETLSLTCTVSGGSISTYYWSWIRQPPGKGLEWIGYIHQSGGTYYNPSLKRRVTILADTSKNQFSLKLTSMTAADTAVYYCARVEYYAAGSPFDYWGQGTLVTVSS
chain 2: DIQMTQSPSSLSASVGDRVTITCQASQDISNYLNWYQQKPGKAPKLLIYDASHVETGVPSRFSGSGSGTEFTFTISSLQPEDVATYYCQQYDDLPMYTFGQGTRLEIK
For the molecule B3, the “pseudovirus neutralization IC50” value in assay [1], in assay [2], in assay [3], in assay [4], in assay [5] and in assay [6] was > 10 µg/mL each time. The “pseudovirus neutralization IC50” value in assay [7] is 2.83 µg/mL.

B4: BD56-1822 (protein)
chain 1: QMQLVESGGGVVQPGRSLRLSCAASAFTFSTYAMHWVRQAPGKGLEWVAVISDDGSSKFYADSVKGRFTISRDNSKNMLYLQLNSLRAEDTAVYYCARDGPVGVTHYFDYWGQGTLVTVSS
chain 2: DIQLTQSPSSLSASVGDRVTITCRASQSISTYLHWYQQKPGQAPKLLIYAASSLQTGVPSRFSGRGSGTDFTLTISSLQPEDFATYYCQQSYSTLELTFGPGTRVDIK
On to B4, for which the “pseudovirus neutralization IC50” value in assay [1], in assay [2], in assay [3], in assay [4], in assay [5] and in assay [6] was > 10 µg/mL throughout. The “pseudovirus neutralization IC50” value in assay [7] was > 10 µg/mL.

B5: BD56-1804 (protein)
chain 1: EVQLVESGGGLVQPGGSLRLSCAASGFTFRSYDMHWVRQGAGKGLEWVSTIGTGGDTYYSDSVKGRFSISRENAKNSVYLQMSSLRVGDTAVYYCARVNYDSSGYKWHLDYWGQGTPVSVSS
chain 2: DIQMTQSPSSLSASVGDRVTITCRASQSISRYLNWYQQKPGKGPNLLIYDASSLQRGVPSRFSGSGSGTDFTLTISSLQPEDFATYYCQQSYTNPLYTFGQGTKLEIK
Consider B5, for which the “pseudovirus neutralization IC50” value in assay [1], in assay [2], in assay [3], in assay [4], in assay [5] and in assay [6] was > 10 µg/mL in each case. In assay [7], the “pseudovirus neutralization IC50” value turned out to be 2.72 µg/mL.

B6: BD56-1820 (protein)
chain 1: EVQLVESGGGLVQPGGSLRLSCAVSGFTVSSNYMSWVRQAPGKGLEWVSVIYPGGSAFYADSVKGRFTISRHNSKNTLYLQLNSLRAEDTAVYYCARDFYHDSSGYPRDFWGQGTLVTVSS
chain 2: DIQMTQSPSALSASVGDRVTITCQASQDISNYLNWYQQKPGKAPKLLIYDASNLETGVPSRFSGSGSGTDFTFTISSLQPEDIATYYCHQYDNLPRTFGQGTKVEIK
On to B6, for which the “pseudovirus neutralization IC50” value in assay [1] is 0.0077 µg/mL; in assay [2], 0.0044 µg/mL; in assay [3], 0.0487 µg/mL; in assay [4], 0.0174 µg/mL; in assay [5], > 10 µg/mL; in assay [6], > 10 µg/mL. Further, the “pseudovirus neutralization IC50” value in assay [7] came out at 0.022 µg/mL.

B7: BD56-1840 (protein)
chain 1: EVQLVESGGGLVQPGGSLRLSCAASGLTVSSNYMSWVRQAPGKGLEWLSLIYPGGTTYFADSVKGRFTISRHNSKNTLYLQMNSLRPEDTAVYYCARDVLGETGMDVWGQGTTVTVSS
chain 2: DIQMTQSPSSLSASVGDRVTITCQASHDINKYLNWYQQKPGKAPKLLIYDASNLETGVPSRFSGSGSGTDFTFTISSLQPEDIATYYCQQYDNLPRTFGQGTNLEIK
As to B7, the “pseudovirus neutralization IC50” value in assay [1] is 0.00651 µg/mL; in assay [2] it was 0.00769 µg/mL; in assay [3], > 10 µg/mL; in assay [4] it was 0.0117 µg/mL; in assay [5], > 10 µg/mL; in assay [6], > 10 µg/mL. Besides, the “pseudovirus neutralization IC50” value in assay [7] was 0.0374 µg/mL.

B8: BD56-1838 (protein)
chain 1: QVQLVQSGAEVRRPGASVKVSCKVSGYSLSELSIHWVRQAPGEGLQWMGGFDPEDGETIYSQKFQGRVTMTEDTSTDTAYMDLSRLRSEDTAVYFCTTGGVYTTSFDFWGQGTLVTVSS
chain 2: DIVMTQSPDSLAVSLGERATINCKSSQSVLYSATKKNYLSWYQQRPGQPPKLLIYWASTRASGVPDRFSGSGSGTDFTLTISSLQAEDVAVYYCQQYSNTPPRYTFGQGTKLEIK
Regarding B8, the “pseudovirus neutralization IC50” value in assay [1] is 0.000727 µg/mL; in assay [2], 0.0086 µg/mL; in assay [3], 0.000502 µg/mL; in assay [4], 0.338 µg/mL; in assay [5], 0.439 µg/mL; in assay [6] it was > 10 µg/mL. In assay [7], the “pseudovirus neutralization IC50” value was 0.000648 µg/mL.

B9: BD56-1821 (protein)
chain 1: QVQLVQSGAEVKRPGSSVKVSCKASGGPFSNNVISWVRQAPGQGLEYMGRIIPIPGITNYAQRFQGRGTFTADKSTRTAYLELNNLRSEDTAVYYCATSEVVDADTSYDALDIWGEGTMVTVSS
chain 2: QSALTQPRSVSGSPRQSVTISCTGTNSDVGRYNYVSWYQQHPGRAPKLLIYDVTKRPSGVPVRFSGSKSGNTASLTISGLQADDEADYYCSSYAGDSIFVIFGGGTKLTVL
Consider B9, for which the “pseudovirus neutralization IC50” value in assay [1] was 0.0915 µg/mL; in assay [2], 0.000416 µg/mL; in assay [3], 0.0653 µg/mL; in assay [4] it was 0.0392 µg/mL; in assay [5], > 10 µg/mL; in assay [6], > 10 µg/mL. Besides, in assay [7], the “pseudovirus neutralization IC50” value is 0.000403 µg/mL.

B10: BD56-1809 (protein)
chain 1: QVQLVQSGAEVKKPGSSVKVSCKAAGGTFGHYAIGWVRQAPGQGLEWMGRIIPMFDIPNYAQRFQGRLTIAADRSTSTAYMELSSLTSDDTAVYYCARDKSGGFFGSGTYYDPTIGADFWGQGTLVTVSS
chain 2: QSVLTQPPSASGTPGQRVTISCSGSSSNIGSNTVNWYQQLPGTAPKLLIYSDDQRPSGVPDRFSGSKSGTSASLAISGLQSDDEADYYCAAWDDSLNGRLFGGGTKLTVL
Turning to B10, the “pseudovirus neutralization IC50” value in assay [1] was 0.0176 µg/mL; in assay [2], 0.0105 µg/mL; in assay [3], 0.00109 µg/mL; in assay [4], > 10 µg/mL; in assay [5] it was > 10 µg/mL; in assay [6], > 10 µg/mL. Besides, the “pseudovirus neutralization IC50” value in assay [7] is 0.00505 µg/mL.

B11: BD56-1834 (protein)
chain 1: QVQLVQSGAEVKEPGSSVKVSCKASGGTFSSYTISWVRQAPGQGLECMGRIIPTLGIADYAQKFQGRVTITADKSTSTAYMELSSLRSEDTAVYYCARVRSIVTINSWWFDPWGQGTLVTVSS
chain 2: QSVLTQPPSVSGAPGQRVTISCTGSNSNIGAGYDVHWYQQLPGTAPKLLIYGNNNRPSGVPDRFSGSKSDTSASLAITGLQAEDEADYYCQSYDSSVSDSGVFGTGTKVTVL
For the molecule B11, the “pseudovirus neutralization IC50” value is 0.0687 µg/mL in assay [1]; 0.0608 µg/mL in assay [2]; 0.0642 µg/mL in assay [3]; > 10 µg/mL in assay [4]; > 10 µg/mL in assay [5]; > 10 µg/mL in assay [6]. Further, the “pseudovirus neutralization IC50” value in assay [7] amounted to 0.0549 µg/mL.

B12: BD56-1831 (protein)
chain 1: QVQLVQSGAEVKKPGASVKVSCKASGYTFTDYSMNWVRQAPGQGLEWMGWINPNSGGTNSAQRFQGRLTMTRDTSITTAYMELTRLRSDDTAVYYCVRESCSGTSCFDSWGQGTLVTVSS
chain 2: SYVLTQPPSVSVAPGQTARITCAGNNIGSKSVHWYQQKSGQAPVLVVYDDSDRPSGIPERFSGSNSGNTATLTVSRVEAGDEADYYCQVWDGTDDHFYVFGTGTKVTVL
As for B12, the “pseudovirus neutralization IC50” value in assay [1], in assay [2], in assay [3], in assay [4], in assay [5] and in assay [6] was > 10 µg/mL in each case. In assay [7], the “pseudovirus neutralization IC50” value is > 10 µg/mL.
